The values that follow come from patent US20070003608A1, “Compounds, compositions and methods for the treatment of viral infections and other medical disorders” (priority 2005, published 2007).

Molecules are shown by their SMILES.

Assay type in all cases: cell-based
For one data set, the system named is HSV-1. As to the kind of experiment: HSV-1 antiviral assay, HSV DNA quantified by nucleic acid hybridization in MRC-5 cells. The conditions noted are these: CC50/EC50; Table 7.
Data set [1] relates to Human Cytomegalovirus (HCMV). Kind of data set: HCMV antiviral assay, HCMV DNA quantified by DNA hybridization in MRC-5 cells.
For another data set, the system named is HIV-1. As to the kind of experiment: HIV-1 plaque reduction assay in HT4-6C cells. The conditions noted are these: CC50/EC50; Table 6.
Where [2] appears, read: CC50/EC50, HCMV in MRC-5, Table 2.
Where [3] appears, read: against HCMV, CEM CC50 over HCMV EC50, rapidly dividing cells.

As for `CCCCCCCCCCCCCCCCCCOCCOP(=O)(O)COC(CO)Cn1ccc(N)nc1=O` (centres unmarked) [1-O-octadecylpropanediol-2-CDV, 1-O-octadecylethanediol-2-cidofovir], in the data set on HSV-1, the “Selectivity Index” value is 105,000.

As for `CCCCCCCCCCCCCCCCCCOCCOP1(=O)COC(Cn2ccc(N)nc2=O)CO1` (centres unmarked) [1-O-octadecylpropanediol-2-cCDV, 1-O-octadecylethanediol-2-cyclic cidofovir], in the data set with HSV-1, the “Selectivity Index” value is on record as 40,000.

For the molecule `CCCCCCCCCCCCCCCCCCOCCCOP1(=O)COC(Cn2ccc(N)nc2=O)CO1` (centres unmarked) [1-O-octadecylpropanediol-3-cCDV, 1-O -octadecylpropanediol-3-cyclic cidofovir], in the data set on HSV-1, the “Selectivity Index” value was determined as 970.

For `Nc1ncnc2c1ncn2CCOCP(=O)(O)O` [Adefovir, adefovir, reference compound], in data set [1] (setting [2]), the “Selective Index” value is greater than 18. The same molecule displayed a Selectivity Index in the data set with HIV-1 greater than 122.

For `Nc1ccn(C[C@@H](CO)OCP(=O)(O)O)c(=O)n1` [CDV, cidofovir, reference compound], the “Selective Index” value was greater than 2174 in data set [1] (setting [2]) and 1,900 in data set [1] (setting [3]). In addition, the “Selectivity Index” value in the data set with HSV-1 was greater than 800.

Turning to `CCCCCCCCCCCCCCCCOCCCOP(=O)(O)COCCn1cnc2c(N)ncnc21` [HDP-ADV, 1-O-hexadecylpropanediol-3-adefovir], the “Selective Index” value in data set [1] (setting [2]) stood at 65. Moreover, the Selectivity Index in the data set with HIV-1 amounted to 813.

In the case of `CCCCCCCCCCCCCCCCOP1(=O)CO[C@@H](Cn2ccc(N)nc2=O)CO1` (some centres unmarked) [Hexadecyl-cCDV, hexadecyl cyclic cidofovir], the “Selective Index” value in data set [1] (setting [2]) is listed as 163.

For `Nc1ccn(C[C@H]2COP(=O)(O)CO2)c(=O)n1` [cCDV, cyclic cidofovir, reference compound], the “Selective Index” value is on record as greater than 2128 in data set [1] (setting [2]) and >2,100 in data set [1] (setting [3]). Also, the “Selectivity Index” value in the data set with HSV-1 is on record as greater than 475.
